Test results taken from publication PMC9614474 (Plant Physiology, 2022).

Sequences of proteins named here, by UniProt entry; tags and fusion partners are left off. Residues count along the entry.
UniProt G4N906, 17-162 limits assumed: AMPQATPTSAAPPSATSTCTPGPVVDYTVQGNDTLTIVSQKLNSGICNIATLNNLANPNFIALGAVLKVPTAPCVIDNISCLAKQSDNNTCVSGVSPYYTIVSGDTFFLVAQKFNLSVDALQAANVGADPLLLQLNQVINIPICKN

Molecular target: MoSlp1 (Pyricularia oryzae, UniProt G4N906)
Assay: ligand-induced polymerization, centrifugation pellet with methylene blue
Settings: 100 µM protein, 1 mM oligomer, room temperature, overnight

CC(=O)N[C@H]1[C@H](O[C@H]2[C@H](O)[C@@H](NC(C)=O)[C@H](O[C@H]3[C@H](O)[C@@H](NC(C)=O)C(O)O[C@@H]3CO)O[C@@H]2CO)O[C@H](CO)[C@@H](O[C@@H]2O[C@H](CO)[C@@H](O[C@@H]3O[C@H](CO)[C@@H](O[C@@H]4O[C@H](CO)[C@@H](O)[C@H](O)[C@H]4NC(C)=O)[C@H](O)[C@H]3NC(C)=O)[C@H](O)[C@H]2NC(C)=O)[C@@H]1O (stereo partly shown) [Chi6, hexaacetylchitohexaose]
ligand-induced polymerization, centrifugation pellet with methylene blue: clear pellets were formed upon incubation of these proteins with chitin
